Results of unrelated studies side by side (data: NIAID ChemDB).

All rows: growth or infection tests; species: Mycobacterium tuberculosis

Lines come from different laboratories, so protocols vary.

Cc1cc(/C=N/Nc2ccnc3ccc(C4CCCCC4)cc23)c(C)n1-c1ccccc1 ; strain or isolate: H37Rv ; cell line: VERO ; endpoint: inhibition ; dose: 12.5 µg/mL ; value: 100%
CCn1cc(C(=O)O)c(=O)c2cc(F)c(N3CCN(CC(=O)c4ccc(OC)cc4)CC3)cc21 ; strain or isolate: H37Rv ; endpoint: MIC ; value: >6.25 µg/mL
CC1=NNC(=O)CC1 ; endpoint: MIC ; value: >40 µg/mL
O=C(N/N=C/c1cccs1)c1ccc(F)cc1 ; strain or isolate: H37Rv ; endpoint: inhibition ; dose: 6.25 µg/mL ; value: 18%
O=C(N/N=C/c1ccccc1F)c1ccncc1 ; strain or isolate: Thiacetazone-resistant ; endpoint: MIC ; value: >1.6 µg/mL
CC(C)N=c1cc2n(-c3ccc(Cl)cc3)c3ccccc3nc-2cc1Nc1ccc(Cl)cc1 ; strain or isolate: MDR10 ; read by: broth dilution / resazurin ; endpoint: MIC ; value: 0.25 µg/mL
C/C(=N\NC(=O)c1ccncc1)c1ccc(F)cc1 ; strain or isolate: Isoniazid-resistant ; endpoint: MIC ; value: >1.6 µg/mL
COc1ccc2c(N/N=C/c3ccc(OC)c4ccccc34)ccnc2c1 ; strain or isolate: H37Rv ; cell line: VERO ; endpoint: MIC ; value: 0.78 µg/mL
O=c1[nH]c2c(Cl)cccc2c(O)c1N=Nc1cccc([N+](=O)[O-])c1 ; strain or isolate: H37Rv ; read by: resazurin ; endpoint: inhibition ; dose: 6.25 µg/mL ; value: 24%
NC(=O)c1cnccn1 ; strain or isolate: ATCC 35801 niacin-positive ; endpoint: MIC ; value: 128 µg/mL
O=C(N/N=C/c1cccc(C(F)(F)F)c1)c1ccncc1 ; strain or isolate: H37Rv (isoniazid-resistant) ; endpoint: MIC ; value: >32 µg/mL
CN(C(=S)S(=O)(=O)C12CC3CC(CC(C3)C1)C2)c1ccccc1 ; strain or isolate: H37Rv ; read by: BACTEC ; endpoint: MIC ; value: 128 µg/mL
Cc1ccc(C)c(Sc2ccncc2)c1 ; strain or isolate: H37Rv ; endpoint: inhibition ; dose: 6.25 µg/mL ; value: 4%
O=C1NNC(=S)NN1 ; endpoint: MIC ; value: >200 µg/mL
Cc1ccc(C)c(Sc2ncnc3nc[nH]c23)c1 ; strain or isolate: H37Ra ; endpoint: MIC ; value: >12.8 µg/mL
O=C(N/N=C/c1ccc([N+](=O)[O-])s1)c1ccc(F)cc1 ; strain or isolate: H37Rv ; endpoint: EC50 ; value: <6.25 µg/mL
CC(=O)NC[C@H]1CN(c2ccc(N3CCOCC3)c(F)c2)C(=O)O1 ; strain or isolate: Strain 361 ; endpoint: MIC ; value: 0.5 µg/mL
O=C(N/N=C/c1ccc([N+](=O)[O-])s1)c1ccccc1 ; strain or isolate: H37Rv ; endpoint: inhibition ; dose: 6.25 µg/mL ; value: 96%
CO[C@H]1/C=C/O[C@@]2(C)Oc3c(C)c(O)c4c(O)c(c(/C=N/N5CCN(C/C=C/c6ccccc6)CC5)c(O)c4c3C2=O)NC(=O)/C(C)=C\C=C\[C@H](C)[C@H](O)[C@@H](C)[C@@H](O)[C@@H](C)[C@H](OC(C)=O)[C@@H]1C ; strain or isolate: 2227 (MDR) ; endpoint: MIC ; value: 1 µg/mL
O=C(N/N=C/c1ccccc1)c1ccc(Nc2ccc(-c3ccccc3)cc2)cc1 ; endpoint: MIC ; value: >10 µg/mL
Cc1ccc(CSc2ncnc3nc[nH]c23)cc1 ; strain or isolate: H37Rv ; endpoint: MIC90 ; value: >6.25 µg/mL
O=c1[nH]c2cc([N+](=O)[O-])ccc2c(O)c1N=Nc1cccc(Cl)c1Cl ; strain or isolate: H37Rv ; read by: resazurin ; endpoint: inhibition ; dose: 6.25 µg/mL ; value: 21%
Cc1cccc(CSc2ncccn2)c1 ; strain or isolate: H37Ra ; endpoint: MIC ; value: >12.8 µg/mL
CO[C@H]1/C=C/O[C@@]2(C)Oc3c(C)c(O)c4c(=O)c(c5oc6cc(N7CCN(CC(C)C)CC7)cc(=O)c6nc5c4c3=C2O)NC(=O)/C(C)=C\C=C\[C@H](C)[C@H](O)[C@@H](C)[C@@H](O)[C@@H](C)[C@H](OC(C)=O)[C@@H]1C ; strain or isolate: Watanabe ; endpoint: MIC ; value: 4 µg/mL
CCOC(=O)NNC(=O)c1ccccc1 ; endpoint: MIC ; value: >200 µg/mL
C[C@H]1COc2c(N3CCN(C)CC3)c(F)cc3c(=O)c(C(=O)O)cn1c23 ; strain or isolate: Strain 40 ; endpoint: MIC ; value: 0.25 µg/mL
CCn1cc(C(=O)O)c(=O)c2cc(F)c(N3CCN(C/C(=N/O)c4ccc(F)cc4)CC3)cc21 ; strain or isolate: H37Rv ; endpoint: MIC ; value: >6.25 µg/mL
COc1ccc(CSc2ccccn2)cc1 ; strain or isolate: H37Rv ; endpoint: inhibition ; dose: 6.25 µg/mL ; value: 0%
O=c1[nH]c2c([N+](=O)[O-])cccc2c(O)c1N=Nc1cccc(Cl)c1 ; strain or isolate: H37Rv ; read by: resazurin ; endpoint: inhibition ; dose: 6.25 µg/mL ; value: 82%
Cc1ccc(Sc2nc(Cl)nc3nc[nH]c23)cc1C ; strain or isolate: H37Rv ; endpoint: MIC90 ; value: >6.25 µg/mL
C=C1C(=O)O[C@H]2[C@H]1CC/C(C)=C/CC[C@@]1(C)O[C@@H]21 ; strain or isolate: H37Rv ; read by: BACTEC ; endpoint: inhibition ; dose: 12.8 µg/mL ; value: 51%
Cn1c(=O)c(N=Nc2ccc([N+](=O)[O-])cc2)c(O)c2ccccc21 ; strain or isolate: H37Rv ; read by: resazurin ; endpoint: MIC ; value: >6.25 µg/mL
CCOc1ccc2c(N/N=C/c3ccc(OC)c4ccccc34)cc(C)nc2c1 ; strain or isolate: H37Rv ; cell line: VERO ; endpoint: inhibition ; dose: 12.5 µg/mL ; value: 100%
CCCC(=O)OCc1cc(=O)n(C)c2c3c4c(cc12)c(C)cc(=O)n4CO3 ; strain or isolate: H37Rv ; read by: BACTEC ; endpoint: MIC bound ; value: ≤12.5 µg/mL
NNC(=O)c1ccncc1 ; strain or isolate: PR503 ; endpoint: MIC ; value: 1.25 µg/mL
C/C(=N\NC(=O)c1ccncc1)c1ccccc1 ; strain or isolate: Erdman ; cell line: Macrophages ; read by: colony count ; setting: inside macrophages ; endpoint: EC90 ; value: 0.074 µg/mL
Cc1ccc(Sc2ccncc2)cc1 ; strain or isolate: H37Ra ; endpoint: MIC ; value: >12.8 µg/mL
COc1ccc(/C=N/Nc2cc(C)nc3ccc(F)cc23)c2ccccc12 ; strain or isolate: H37Rv ; cell line: VERO ; endpoint: MIC ; value: 3.13 µg/mL
COc1ccccc1Sc1ncccn1 ; strain or isolate: H37Rv ; endpoint: inhibition ; dose: 6.25 µg/mL ; value: 2%
O=C1NNS(=O)(=O)c2ccccc21 ; endpoint: MIC ; value: >200 µg/mL
O=C([O-])C1=NN(c2ccc(S(=O)(=O)[O-])cc2)C(=O)C1N=Nc1ccc(S(=O)(=O)[O-])cc1.[Na+].[Na+].[Na+] ; strain or isolate: H37Rv ; read by: BACTEC ; endpoint: MIC bound ; value: >12.8 µg/mL
CO[C@H]1/C=C/O[C@@]2(C)Oc3c(C)c(O)c4c(=O)c(c5oc6cc(N7CCN(CC(C)C)CC7)cc(=O)c6nc5c4c3=C2O)NC(=O)/C(C)=C\C=C\[C@H](C)[C@H](O)[C@@H](C)[C@@H](O)[C@@H](C)[C@H](OC(C)=O)[C@@H]1C ; strain or isolate: 14 (rifampicin-susceptible) ; endpoint: MIC ; value: 0.0039 µg/mL
Cc1cccc(N=Nc2c(O)c3ccc(C)cc3[nH]c2=O)c1 ; strain or isolate: H37Rv ; read by: resazurin ; endpoint: MIC ; value: <6.25 µg/mL
CC(NNC(=O)c1ccncc1)c1ccc(Cl)c(Cl)c1 ; strain or isolate: Rifampicin-resistant ; endpoint: MBC ; value: 12.5 µg/mL
O=C(N/N=C/c1ccncc1)c1ccc(F)cc1 ; strain or isolate: H37Rv ; endpoint: EC50 ; value: >6.25 µg/mL
CCn1cc(C(=O)O)c(=O)c2cc(F)c(N3CCN(CC(=O)c4ccc(Br)cc4)CC3)cc21 ; strain or isolate: H37Rv ; cell line: VERO ; endpoint: MIC ; value: 6.25 µg/mL
O=c1[nH]c2ccccc2c(O)c1N=Nc1cccc(Cl)c1 ; strain or isolate: H37Rv ; read by: resazurin ; endpoint: inhibition ; dose: 6.25 µg/mL ; value: 41%
C/C(=N\NC(=O)c1ccncc1)c1ccccc1F ; strain or isolate: H37Rv ; endpoint: MIC ; value: 0.2 µg/mL
Cc1ccc(/C(CN2CCN(c3cc4c(cc3F)c(=O)c(C(=O)O)cn4C3CC3)CC2)=N\O)cc1 ; strain or isolate: H37Rv ; endpoint: inhibition ; dose: 6.25 µg/mL ; value: 11%

Repeating the final 5 entries:

{"compound": "O=C(N/N=C/c1ccncc1)c1ccc(F)cc1", "strain or isolate": "H37Rv", "endpoint": "EC50", "value": ">6.25 µg/mL"}
{"compound": "CCn1cc(C(=O)O)c(=O)c2cc(F)c(N3CCN(CC(=O)c4ccc(Br)cc4)CC3)cc21", "strain or isolate": "H37Rv", "cell line": "VERO", "endpoint": "MIC", "value": "6.25 µg/mL"}
{"compound": "O=c1[nH]c2ccccc2c(O)c1N=Nc1cccc(Cl)c1", "strain or isolate": "H37Rv", "read by": "resazurin", "endpoint": "inhibition", "dose": "6.25 µg/mL", "value": "41%"}
{"compound": "C/C(=N\\NC(=O)c1ccncc1)c1ccccc1F", "strain or isolate": "H37Rv", "endpoint": "MIC", "value": "0.2 µg/mL"}
{"compound": "Cc1ccc(/C(CN2CCN(c3cc4c(cc3F)c(=O)c(C(=O)O)cn4C3CC3)CC2)=N\\O)cc1", "strain or isolate": "H37Rv", "endpoint": "inhibition", "dose": "6.25 µg/mL", "value": "11%"}

MIC bound comes from a single tested concentration. ECn is the concentration giving n% inhibition of infection, replication or growth. Inhibition is in % at the dose shown (toxicity tests: loss of growth or viability). MIC50, MIC90 and the like: level of inhibition, or share of isolates inhibited.